PubChem BioAssay AID624099 | ICCB-Longwood | 2012

Aim: 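Human genes that papillomavirus E2 requires to repress the HPV18 LCR promoter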 (primary screen)
Cell system: human C33A cervical carcinoma cells (HPV-negative) stably expressing BPV1 E2 and an HPV18 LCR luciferase reporter
Knock-down reagent: siRNA pool against human genes, 40 nM
Timing: 72 h
Measurement: 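Per-well luciferase luminescence, z-scored on each plate against the plate mean and SD with control wells left out, then averaged across three replicate plates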
Scale: mean z-score and z-score: higher = stronger reporter signal, weaker E2 silencing
Hit rule: 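Mean z ≥ 2 together with z ≥ 2 in two or more of the three replicates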
This is a random part of about 21,000 reagents tested. Over the whole deposit, 497 (2.4%) got an active call. 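Higher z means weaker E2 silencing; only reporter increases were scored, and knock-downs that hurt cell survival may mask genuine repressor factors.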 A number with no mark means an inactive call. The numbers tell different reagents against one gene apart.

gene | reagent | mean z-score | z-score, replicate A | z-score, replicate B | z-score, replicate C
SPAG11B | 1 | 1.03 | 1.21 | 0.88 | 0.98
ATP6V1D | 1 | 1.28 | 1.12 | 1.25 | 1.47
CA12 | 1 | 0.67 | 0.8 | 0.74 | 0.48
CTAGE10P | 1 | -1.24 | -1.49 | -1.08 | -1.14
KCNK3 | 1 | -1.22 | -1 | -1.15 | -1.5
CYP2D7 | 1 | -0.36 | -0.52 | -0.33 | -0.24
TOLLIP | 1 | 1.03 | 1.36 | 0.95 | 0.77
LINC02538 | 1 | -0.34 | -0.23 | -0.33 | -0.47
LINC02538 | 2 | -1.06 | -1.19 | -0.9 | -1.1
FAM178B | 1 | -0.76 | -0.36 | -1.12 | -0.79
ZC3H15 | 1 | -0.55 | -0.97 | -0.72 | 0.02
BEND4 | 1 | 0.53 | 0.62 | 0.48 | 0.48
PTH1R | 1 | 0.85 | 0.88 | 0.61 | 1.04
SCN4B | 1 | 0.47 | 0.12 | 0.54 | 0.76
CATSPER1 | 1 | -0.85 | -0.87 | -0.79 | -0.9
TFE3 | 1 | 0.24 | 0.11 | 0.04 | 0.55
SECTM1 | 1 | 0.47 | 0.33 | 0.36 | 0.73
SIRT3 | 1 | -0.11 | 0.37 | -0.21 | -0.51
ALB | 1 | 0.83 | 1.42 | 0.56 | 0.51
CCPG1 | 1 | 0.09 | 0.07 | 0.19 | 0.01
CDC37P1 | 1 | 0.23 | -0.04 | 0.72 | 0.02
TMEM215 | 1 | -0.32 | -0.13 | -0.29 | -0.55
ACTR2 | 1 | 0.78 | 0.62 | 0.9 | 0.83
SLF1 | 1 | 0.97 | 0.52 | 1.51 | 0.87
SLF1 | 2 | 0.24 | 0.17 | 0.61 | -0.05
ADAMTS15 | 1 | 0.75 | 0.85 | 0.55 | 0.86
CCDC171 | 1 | 0.59 | 0.25 | 1.17 | 0.36
RAB11FIP4 | 1 | 2.38 (active) | 2.82 | 2 | 2.32
SEMA6B | 1 | -0.32 | -0.21 | -0.11 | -0.63
PRKCI | 1 | -0.86 | -1.04 | -1.02 | -0.54
WDR7 | 1 | -1.49 | -1.44 | -1.61 | -1.42
SUSD6 | 1 | -1.26 | -1.51 | -1.22 | -1.04
PNPLA6 | 1 | 0.48 | 0.11 | 0.94 | 0.39
LOC388639 (retired record) | 1 | 0.22 | 0.54 | 0.17 | -0.06
PSENEN | 1 | 0.53 | 0.05 | 0.54 | 1.01
FAM135B | 1 | 0.6 | 0.21 | 0.96 | 0.64
GALE | 1 | 0.77 | 0.68 | 1.01 | 0.62
IRF7 | 1 | 0.22 | 0.2 | 0.3 | 0.17
UGT1A1 | 1 | -0.52 | -0.51 | -0.74 | -0.31
RIPK2 | 1 | 0.06 | 0.08 | 0.08 | 0.01
RNF113B | 1 | 0.94 | 1.01 | 1.01 | 0.79
CD164 | 1 | 0.11 | -0.01 | 0.08 | 0.26
SHISA7 | 1 | 0.27 | 0.4 | 0.15 | 0.26
PHLPP1 | 1 | 0.69 | 0.8 | 0.49 | 0.77
COA8 | 1 | 0.07 | 0.02 | 0.15 | 0.04
KRT26 | 1 | -0.32 | 0.06 | -0.68 | -0.34
KRABD1 | 1 | 0.12 | 0.3 | 0.09 | -0.03
KRABD1 | 2 | 0.5 | 0.97 | 0.35 | 0.19
XAB2 | 1 | 1.34 | 1.09 | 1.54 | 1.39
OR10A5 | 1 | 1.09 | 0.74 | 1.07 | 1.47
C11orf87 | 1 | 0.76 | 0.58 | 0.93 | 0.77
TMEM14B | 1 | -0.3 | -0.49 | -0.26 | -0.16
DMAC2 | 1 | 0.31 | 1.26 | 0.34 | -0.67
OR5K3 | 1 | -1.6 | -1.32 | -1.75 | -1.73
MAGEA4 | 1 | -1.13 | -1.06 | -1.11 | -1.22
TFF1 | 1 | -0.32 | 0.02 | -0.57 | -0.42
NEK3 | 1 | -0.81 | -0.66 | -1.08 | -0.71
